Results of unrelated studies side by side (data: NIAID ChemDB).

Shared fields: growth or infection tests; organism: HIV-1; read by: syncytia; read-out: fold resistance

Conditions beyond the fields shown may differ between rows. Fold resistance has wild type as its base. An empty or dashed field is not shown.

CCN1C(=O)N(Cc2ccccc2)S(=O)(=O)c2cscc21 ; cells: CEM ; changes: RT-L100I ; strain or isolate: IIIB ; result: 6.8
CC(C)Nc1cccnc1N1CCN(C(=O)c2cc3ccccc3[nH]2)CC1 ; cells: CEM ; changes: RT-Y181C ; strain or isolate: IIIB ; result: 12.5
CN1C(=O)N(Cc2ccccc2)S(=O)(=O)c2cscc21 ; cells: CEM ; changes: RT-E138K ; strain or isolate: IIIB ; result: >141
Cc1cn([C@@H]2O[C@H](CO[Si](C)(C)C(C)(C)C)C3(OS(=O)(=O)C=C3N)[C@H]2O[Si](C)(C)C(C)(C)C)c(=O)n(C)c1=O ; cells: CEM ; changes: RT-Y181C ; strain or isolate: IIIB nevirapine-resistant (RT Y181C) ; result: >1670
CCOCn1c(Sc2ccccc2)c(CC)c(=O)[nH]c1=O ; cells: CEM ; changes: RT-Y181C ; strain or isolate: IIIB ; result: 51.4
Nc1cc(OCCOCP(=O)(O)O)nc(N)n1 ; cells: CEM ; changes: RT-K65R S68G T69I V75T Q151M ; strain or isolate: Clinical isolate DE434.4 ; result: 6.8
C=C(C)OC(=O)N1c2cc(Cl)ccc2NC(=S)C1(C)C ; cells: CEM ; changes: RT-K103N ; strain or isolate: TIBO-2(RT-K103N) ; result: 12.9
CCN1C(=O)N(Cc2cccc(Cl)c2)S(=O)(=O)c2cscc21 ; cells: CEM ; changes: RT-L100I ; result: 3.27
CCNc1cccnc1N1CCN(C(=O)c2cc3cc(OC)ccc3[nH]2)CC1 ; cells: PBL ; changes: TIBO-resistant ; strain or isolate: D34 ; result: >3330
Cc1occc1C(=S)Nc1ccc(Cl)c(C(=O)OC2CCCC2)c1 ; cells: CEM ; changes: RT-Y188L ; strain or isolate: IIIB ; result: 500
N#CCN1C(=O)N(Cc2cccc(F)c2)S(=O)(=O)c2cscc21 ; cells: CEM ; changes: RT-E138K ; result: 4.83
Nc1ncnc2c1ncn2CCOCP(=O)(O)O ; cells: CEM ; changes: RT-E138K ; strain or isolate: IIIB ; result: 0.882
CCNc1cccnc1N1CCN(C(=O)c2cc3cc(OC)ccc3[nH]2)CC1 ; cells: CEM ; changes: RT-Y181C ; strain or isolate: IIIB-TSAO-m3T(10)(RT-Y181C) ; result: 4
O=c1[nH]cnc2c1ncn2[C@H]1CC[C@@H](CO)O1 ; cells: CEM ; changes: RT-E138K ; strain or isolate: IIIB ; result: 1.15
Nc1ccn([C@H]2CC[C@@H](CO)O2)c(=O)n1 ; cells: CEM ; changes: RT-L100I ; strain or isolate: IIIB-TIBO(0.5)(RT-L100I) ; result: 0.6
Cc1cn([C@@H]2O[C@H](CO[Si](C)(C)C(C)(C)C)[C@@]3(OS(=O)(=O)C=C3N)[C@H]2O[Si](C)(C)C(C)(C)C)c(=O)[nH]c1=O ; cells: CEM ; changes: RT-L100I Y188H ; strain or isolate: IIIB TIBO R82913 STR-B22 (RT L100I Y188H) ; result: 133
Cc1cc(C)cc(Sc2c(C(C)C)c(=O)[nH]c(=S)n2COCCO)c1 ; cells: CEM ; changes: RT-E138K ; strain or isolate: IIIB ; result: 3.33
Cc1cn([C@H]2C[C@H](N=[N+]=[N-])[C@@H](CO)O2)c(=O)[nH]c1=O ; cells: CEM ; changes: RT-M41L T215Y ; strain or isolate: HXB2 ; result: ≥1250
Nc1ccn([C@H]2CC[C@@H](CO)O2)c(=O)n1 ; cells: CEM ; changes: RT-Y181C ; strain or isolate: IIIB nevirapine-resistant (RT Y181C) ; result: 0.4
CCOCn1c(Cc2cc(C)cc(C)c2)c(CC)c(=O)[nH]c1=O ; cells: CEM ; changes: RT-Y181C ; strain or isolate: IIIB ; result: 133
C#CCN1C(=O)N(Cc2ccccc2)S(=O)(=O)c2cscc21 ; cells: CEM ; changes: RT-E138K ; strain or isolate: IIIB ; result: 5.9
CN1C(=O)N(Cc2ccccc2)S(=O)(=O)c2cscc21 ; cells: CEM ; changes: RT-Y188H ; result: >141
Cc1c(N)nc(N)nc1OCCOCP(=O)(O)O ; cells: CEM ; changes: RT-A62V V75I F77L Q151M M184V ; strain or isolate: Clinical isolate HA20.17 ; result: 2.9
CC(C)Nc1cccnc1N1CCN(C(=O)c2cc3ccccc3[nH]2)CC1 ; cells: CEM ; changes: RT-E138K ; strain or isolate: TSAO(RT-E138K) ; result: 1.75
Cc1occc1C(=S)Nc1ccc(Cl)c(/C=N/OC(C)(C)C)c1 ; cells: CEM ; changes: RT-M41L T215Y ; strain or isolate: HXB2 ; result: 1.5
CCN1C(=O)N(Cc2ccccc2)S(=O)(=O)c2cscc21 ; cells: CEM ; changes: RT-V106A ; result: >111
CCOCn1c(Cc2cc(C)cc(C)c2)c(CC)c(=O)[nH]c1=O ; cells: CEM ; changes: RT-Y181C ; strain or isolate: IIIB PYR(RT-Y181C) ; result: 123
C[C@H](COc1cc(N)nc(N)n1)OCP(=O)(O)O ; cells: CEM ; changes: RT-M41L D67N V118I M184V L210W T215Y ; strain or isolate: Clinical isolate C20 ; result: 3.78
CC(C)=CCN1Cc2cccc3[nH]c(=S)n(c23)C[C@@H]1C ; cells: CEM ; changes: RT-L100I Y188H ; strain or isolate: IIIB TIBO R82913 STR-B22 (RT L100I Y188H) ; result: ≥250
Cc1cn([C@@H]2O[C@H](CO[Si](C)(C)C(C)(C)C)C3(OS(=O)(=O)C=C3N)[C@H]2O[Si](C)(C)C(C)(C)C)c(=O)n(C)c1=O ; cells: CEM ; changes: RT-E138A S162C E169D T200A L214F ; strain or isolate: HXB2 (RT E138A S162C E169D T200A L214F) Clinical isolate ; result: 13
CC(C)(C)[Si](C)(C)OC[C@H]1O[C@@H](n2cnc3c(N)ncnc32)[C@H](O[Si](C)(C)C(C)(C)C)C12OS(=O)(=O)C=C2N ; cells: CEM ; changes: RT-E138K ; strain or isolate: IIIB ; result: >800
Cc1cn([C@@H]2O[C@H](CO[Si](C)(C)C(C)(C)C)C3(OS(=O)(=O)C=C3N)[C@H]2O[Si](C)(C)C(C)(C)C)c(=O)n(C)c1=O ; cells: CEM ; changes: RT-E138K ; strain or isolate: IIIB ; result: 182
CCn1c(=O)c(C)cn([C@@H]2O[C@H](CO[Si](C)(C)C(C)(C)C)C3(OS(=O)(=O)C=C3N)[C@H]2O[Si](C)(C)C(C)(C)C)c1=O ; cells: CEM ; changes: RT-E138K ; strain or isolate: IIIB ; result: >660
O=C1N(Cc2ccccc2)c2cscc2S(=O)(=O)N1Cc1ccccc1 ; cells: CEM ; changes: RT-E138K ; strain or isolate: IIIB ; result: ≥5.56
Cc1cn([C@@H]2O[C@H](CO[Si](C)(C)C(C)(C)C)C3(OS(=O)(=O)C=C3N)[C@H]2O[Si](C)(C)C(C)(C)C)c(=O)n(C)c1=O ; cells: CEM ; changes: RT-M41L T215Y ; strain or isolate: HXB2 ; result: 1
O=c1[nH]cnc2c1ncn2[C@H]1CC[C@@H](CO)O1 ; cells: CEM ; changes: RT-K103N ; strain or isolate: IIIB TIBO R82913 STR-2 (RT K103N) ; result: 1.5
Cc1occc1C(=S)Nc1ccc(Cl)c(/C=N/OC(C)(C)C)c1 ; cells: CEM ; changes: RT-L100I ; strain or isolate: IIIB ; result: 21.82
Cc1ccnc2c1NC(=O)c1cccnc1N2C1CC1 ; cells: CEM ; changes: RT-M41L T215Y ; strain or isolate: HXB2 ; result: 2.22
CCn1c(=O)c(C)cn([C@@H]2O[C@H](CO[Si](C)(C)C(C)(C)C)C3(OS(=O)(=O)C=C3N)[C@H]2O[Si](C)(C)C(C)(C)C)c1=O ; cells: CEM ; changes: RT-C181I ; strain or isolate: IIIB ; result: >833
Nc1ncnc2c1ncn2CCOCP(=O)(O)O ; cells: CEM ; changes: RT-K65R S68G T69I V75T Q151M ; strain or isolate: Clinical isolate DE434.4 ; result: 46.6
CCc1cc(NCc2nc3c(Cl)ccc(Cl)c3o2)c(=O)[nH]c1C ; cells: CEM ; changes: RT-L100I ; strain or isolate: IIIB BHAP(RT-L100I) ; result: 14.3
Cc1cn([C@@H]2O[C@H](CO[Si](C)(C)C(C)(C)C)C3(OS(=O)(=O)C=C3N)[C@H]2O[Si](C)(C)C(C)(C)C)c(=O)n(C)c1=O ; cells: CEM ; changes: RT-V106A ; strain or isolate: NEV(RT-V106A) ; result: 92.5
Cc1cn([C@@H]2O[C@H](CO[Si](C)(C)C(C)(C)C)C3(OS(=O)(=O)C=C3N)[C@H]2O[Si](C)(C)C(C)(C)C)c(=O)n(C)c1=O ; cells: CEM ; changes: RT-L100I ; strain or isolate: IIIB-TIBO(0.5)(RT-L100I) ; result: 1.33
CCOCn1c(Cc2ccccc2)c(C(C)C)c(=O)[nH]c1=O ; cells: CEM ; changes: RT-M184V ; strain or isolate: IIIB ; result: 2
CC(C)=CCOc1cc(NC(=S)c2ccoc2C)ccc1Cl ; cells: CEM ; changes: RT-V106A ; strain or isolate: IIIB ; result: 12.78
CCOCn1c(Cc2ccccc2)c(CC)c(=O)[nH]c1=O ; cells: CEM ; changes: RT-V106A ; strain or isolate: IIIB NEV(RT-V106A) ; result: 30
Cc1occc1C(=S)Nc1ccc(Cl)c(/C=N/OC(C)(C)C)c1 ; cells: CEM ; changes: RT-K103N ; strain or isolate: IIIB ; result: ≥20
COc1ccc2c(c1)N(C(=O)OC(C)C)[C@@H](CSC)C(=S)N2 ; cells: CEM ; changes: RT-E138A S162C E169D T200A L214F ; strain or isolate: HXB2 (RT E138A S162C E169D T200A L214F) Clinical isolate ; result: 10
Cc1cn([C@@H]2O[C@H](CO[Si](C)(C)C(C)(C)C)[C@@]3(OS(=O)(=O)C=C3N)[C@H]2O[Si](C)(C)C(C)(C)C)c(=O)[nH]c1=O ; cells: CEM ; changes: RT-E138K ; strain or isolate: IIIB ; result: 62
CC(C)=CCOc1cc(NC(=S)c2ccoc2C)ccc1Cl ; cells: CEM ; changes: gp120 T90I T188N T236A N289K T297I S334N T341I N386D ; strain or isolate: HHA-500SN (GP120-T90I T188N T236A N289K T297I S334N T341I N386D) ; result: 2
CC(C)=CCN1Cc2cc(Cl)cc3[nH]c(=S)n(c23)C[C@@H]1C ; cells: CEM ; changes: RT-E138K ; strain or isolate: IIIB ; result: 7
Cc1cn([C@@H]2O[C@H](CO[Si](C)(C)C(C)(C)C)C3(OS(=O)(=O)C=C3N)[C@H]2O[Si](C)(C)C(C)(C)C)c(=O)n(C)c1=O ; cells: CEM ; changes: RT-Y188L ; strain or isolate: IIIB ; result: ≥2080
CCOCn1c(Sc2ccccc2)c(CC)c(=O)[nH]c1=S ; cells: CEM ; changes: RT-Y181C ; strain or isolate: IIIB ; result: 133
CCOCn1c(Sc2ccccc2)c(CC)c(=O)[nH]c1=S ; cells: CEM ; changes: RT-Y181C ; strain or isolate: IIIB E-EBU(RT-Y181C) ; result: ≥5000

6 of the rows above, restated:

smiles | cells | changes | strain or isolate | result
CCOCn1c(Sc2ccccc2)c(CC)c(=O)[nH]c1=S | CEM | RT-Y181C | IIIB E-EBU(RT-Y181C) | ≥5000
Cc1cn([C@@H]2O[C@H](CO[Si](C)(C)C(C)(C)C)C3(OS(=O)(=O)C=C3N)[C@H]2O[Si](C)(C)C(C)(C)C)c(=O)n(C)c1=O | CEM | RT-L100I | IIIB-TIBO(0.5)(RT-L100I) | 1.33
CCN1C(=O)N(Cc2ccccc2)S(=O)(=O)c2cscc21 | CEM | RT-V106A |  | >111
CCOCn1c(Cc2ccccc2)c(CC)c(=O)[nH]c1=O | CEM | RT-V106A | IIIB NEV(RT-V106A) | 30
Cc1cc(C)cc(Sc2c(C(C)C)c(=O)[nH]c(=S)n2COCCO)c1 | CEM | RT-E138K | IIIB | 3.33
Cc1occc1C(=S)Nc1ccc(Cl)c(/C=N/OC(C)(C)C)c1 | CEM | RT-M41L T215Y | HXB2 | 1.5